This is an account of results in patent US20030229053A1, “Compounds and methods for the treatment or prevention of flavivirus infections” (Shire BioChem Inc., priority 2001, published 2003).

The chains behind the UniProt entries cited, without tags or fusion partners. Residues count along the entry.
UniProt P26663, 2420-3010 limits assumed: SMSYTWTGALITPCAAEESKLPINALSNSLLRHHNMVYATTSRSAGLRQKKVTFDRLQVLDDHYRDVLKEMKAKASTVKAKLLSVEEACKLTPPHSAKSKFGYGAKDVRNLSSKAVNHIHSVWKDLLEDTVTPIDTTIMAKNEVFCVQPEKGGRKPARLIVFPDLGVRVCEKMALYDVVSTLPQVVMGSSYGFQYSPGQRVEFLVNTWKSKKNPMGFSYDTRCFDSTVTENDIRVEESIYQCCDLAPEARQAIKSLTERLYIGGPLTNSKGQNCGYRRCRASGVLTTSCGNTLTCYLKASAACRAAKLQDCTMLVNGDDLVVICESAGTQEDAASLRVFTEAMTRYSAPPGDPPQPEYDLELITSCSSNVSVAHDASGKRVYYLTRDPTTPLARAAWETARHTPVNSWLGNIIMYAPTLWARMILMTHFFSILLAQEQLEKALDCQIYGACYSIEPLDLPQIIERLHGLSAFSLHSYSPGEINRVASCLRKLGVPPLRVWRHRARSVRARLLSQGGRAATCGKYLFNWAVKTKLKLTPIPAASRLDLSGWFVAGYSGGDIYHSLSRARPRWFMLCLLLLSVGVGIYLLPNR

SMILES strings stand for the structures. The match of structure and compound is tentative.

In the experiment the target is HCV NS5B RNA-dependent RNA polymerase (Hepatitis C virus genotype 1b, UniProt P26663). Kind of experiment: In vitro RNA-dependent RNA polymerase assay (Assay 1), polyA/oligo dT, TCA precipitation. The format is biochemical. The note with it: read-out: RNA pol Assay 1 IC50 (μm); polyA/oligo dT template/primer, 200 ng NS5B, 2 h at 22° C. As to the method: Purification of Recombinant NS5B Using Fast Protein Liquid Chromatography (FPLC):
Soluble NS5B protein in the S3 fraction was diluted to lower the NaCl concentration to 300 mM, then it incubated batchwise with DEAE sepharose beads (Amersham-Pharmacia) for 2 hrs at 4° C., as described by Behrens et al. (1996). Unbound material was cleared by centrifugation for 15 min at 4° C., at 25,000 rpm using a SW41 rotor (Beckman). The supernatant was further diluted to lower the NaCl concentration to 200 mM and subsequently loaded, with a flow rate of 1 ml/min, on a 5 ml HiTrap® heparin column (Amersham-Pharmacia) connected to an FPLC® system (Amersham-Pharmacia). Bound proteins were eluted in 1 ml fractions, using a continuous NaCl gradient of 0.2 to 1 M, over a 25 ml volume. NS5B-containing fractions were identified by sodium dodecyl sulfate polyacrylamide gel electrophoresis (SDS-PAGE), followed by western blotting using the anti-NS5B antiserum at a dilution of 1:2000. […] Eluted fractions were analyzed by SDS-PAGE and western blotting. […]
RdRp assays were conducted using the homopolymeric template/primer polyA/oligo dT. […] Incorporated radioactivity was quantified using a liquid scintillation counter (1450-Microbeta, Wallac). […]

Take `Cc1cc(Cl)ccc1C(=O)N(Cc1ccc(-c2cccc(C(F)(F)F)c2)o1)[C@@H](Cc1ccccc1)C(=O)O`: the IC50 is less than 5 µM. Turning to `O=C(O)C1CCN(c2ncc(CN(C(=O)c3ccc(Cl)cc3Cl)[C@@H](Cc3ccccc3)C(=O)O)s2)CC1`, the half-inhibitory concentration (IC50) lay within 5 to 20 µM.
